Pooled drug test results. Numbers come from NIAID ChemDB, via PubChem.

Shared fields: toxicity to cultured cells; cell line: MT-4; endpoint: CC50

CCn: concentration that lowers growth or viability of the cells by n%. Neighbouring rows are from separate reports.

compound,result
Cc1[nH]c(=S)n(Nc2cccc(Br)c2)c1-c1ccccc1,44.24 µM
CCOCn1c(Cc2cccc(F)c2)c(C(C)C)c(=O)[nH]c1=O,>100 µM
CC(C)[C@@H]1CC[C@@H](C)C/C1=N\NC(N)=S,12.7 µg/mL
CCOC(=O)c1cn(CC(O)CNc2cccc(Cl)c2)cc1-c1ccccc1,42.7 µM
Nc1ncnc2c1ncn2C[C@H](CO)OCP(=O)(O)O,>300 µM
CCC(O)C(N)C(=O)O,>750 µM
COc1ccc(/C=C(\C#N)n2nnc3ccccc32)cc1,0.05 µM
O=C(CCCCCCCCCCC(=O)Nc1cc(S(=O)(=O)O)c2cccc(S(=O)(=O)O)c2c1)Nc1cc(S(=O)(=O)O)c2cccc(S(=O)(=O)O)c2c1,383 µM
CC(C)Oc1cccc(CCNC(=S)Nc2nccs2)c1,16 µM
COc1cc(Cc2cnc(/N=C3\C(=O)N(CN4CCCC4)c4ccc(C)cc43)nc2N)cc(OC)c1OC,124 µM
COc1ccc(Br)cc1CCNC(=S)Nc1nccs1,94 µM
O=C1CSC(c2c(Cl)cccc2Cl)N1c1cc(F)cc(F)c1,43.31 µM
CCC(C)C#COc1c(C(C)C)c(=O)[nH]c2ccc(F)cc12,18 µM
Cc1ccc(C2CC(C3CCC4C5CC=C6CC(O)CC[C@]6(C)C5CC[C@]34C)=NN2C(N)=S)cc1,7.49 µM
CCc1csc(NC(=S)NCCc2ccccc2)n1,>340 µM
Cc1cc(=O)oc2c(C(C)OC(=O)C34CCC(C)(C(=O)O3)C4(C)C)c(OC(C)C)ccc12,20 µM
CCc1c(Cc2ccccc2)nc(OC)[nH]c1=O,323 µM
C[C@]12CCC3C(CC=C4C[C@@H](O)CC[C@@]43C)C1CCC2C(=O)/C=C/c1ccoc1,12 µM
CCCCCCOc1cccc(CCNC(=S)Nc2nccs2)c1,8 µM
COc1ccc(N2CCN(c3c(F)cc4c(=O)c(C(=O)O)cn(C5CC5)c4c3OC(F)F)CC2)cc1,50 µg/mL
CCOC(=O)c1cn(CC(O)CNc2ccccc2)cc1-c1ccccc1,45 µM
C#CCOCn1c(Cc2cccc(F)c2)c(CC)c(=O)[nH]c1=O,>100 µM
Cc1ccc(/C=C(\C(N)=O)n2nc3ccccc3n2)cc1,7 µM
Nc1ncnc2c1ncn2C[C@@H](CO)OCP(=O)(O)O,26 µM
N#C/C(=C/c1ccccc1I)n1nnc2ccccc21,25 µM
Nc1nc(N)c2ncn(C[C@@H](CO)OCP(=O)(O)O)c2n1,56 µM
CCOC(=O)c1cccn1CC(O)CNc1ccccc1,>200 µM
CN(C)c1ccc(/C=C/C(=O)C2CCC3C4CC=C5C[C@@H](O)CC[C@]5(C)C4CC[C@]23C)c(Cl)c1,12.95 µM
Nc1nc2c(ncn2C[C@H](CO)OCP(=O)(O)O)c(=O)[nH]1,9 µM
CCc1c(Cc2ccccc2)nc(OC(C)C)[nH]c1=O,193 µM
O=C(O)c1cn(C2CC2)c2c(OC(F)F)c(N3CCN(c4nc5ccccc5o4)CC3)c(F)cc2c1=O,0.592 µg/mL
S=C(NCCCc1ccccc1)Nc1nccs1,>360 µM
CCc1cc(=O)c2ccc3c(c2o1)[C@@H](OC(=O)C12CCC(C)(C(=O)O1)C2(C)C)[C@@H](OC(=O)C12CCC(C)(C(=O)O1)C2(C)C)C(C)(C)O3,9.27 µM
Cc1cccc(Nn2cnc(C)c2-c2cccc(C#N)c2)c1,44.7 µM
Cc1cccc(N2C(=O)CSC2c2c(Cl)cccc2Cl)c1,20.8 µM
Cc1cc(C)c(S(=O)(=O)Oc2ccc3cccc(S(=O)(=O)O)c3c2)c(C)c1S(=O)(=O)Oc1ccc2cccc(S(=O)(=O)O)c2c1,>500 µM
CCc1c(OC#CC2CC2)c2cc(F)ccc2[nH]c1=O,13.3 µM
CC(=O)Nc1cc(S(=O)(=O)O)cc2cc(S(=O)(=O)O)cc(O)c12,>500 µM
C[C@]12CCC3C(CC=C4C[C@@H](O)CC[C@@]43C)C1CCC2C(=O)/C=C/c1ccc(Br)cc1,13.3 µM
CCCOc1nc(Cc2ccccc2)cc(=O)[nH]1,515 µM
CC(C)Cc1c(OC2CCCC2)c2cc(Cl)ccc2[nH]c1=O,59.2 µM
COc1cc(Cc2cnc(/N=C3\C(=O)N(CN4CCN(c5ccccc5)CC4)c4ccc(C)cc43)nc2N)cc(OC)c1OC,116.1 µM
Cc1ccc(NC(=S)N/N=C2\CC(C)CCC2C(C)C)cc1,2.6 µg/mL
Cc1[nH]c(=S)n(Nc2ccccc2)c1-c1ccccc1,191 µM
COc1cc(Cc2cnc(/N=C3\C(=O)N(CN4CCCCC4)c4ccc(C)cc43)nc2N)cc(OC)c1OC,124.6 µM
Nc1ncc2ncn(C[C@@H](CF)OCP(=O)(O)O)c2n1,>300 µM
NC(=O)/C(=C\c1ccccc1)n1nnc2ccccc21,11 µM
Cc1cc(C)cc(N2C(=O)CSC2c2c(F)cccc2F)c1,36.2 µM
Cc1ccc(NC(=S)NCCc2c(F)cccc2F)nc1,>325 µM
CCOCn1c(Cc2cc(C(F)(F)F)cc(C(F)(F)F)c2)c(CC)c(=O)[nH]c1=O,>100 µM
CCn1cc(C(=O)O)c(=O)c2cc(F)c(N3CCN(c4ccccc4OC)CC3)c(OC(F)F)c21,10 µg/mL
CCOCn1c(Cc2ccccc2)c(C(C)C)c(=O)[nH]c1=O,>100 µM
N#C/C(=C\c1cccc(I)c1)n1nnc2ccccc21,3 µM
Nc1nc2c(ncn2C[C@@H](CO)OCP(=O)(O)O)c(=O)[nH]1,147 µM
Cc1ncn(Nc2cccc(Cl)c2)c1-c1cccc(C#N)c1,36.79 µM
S=C(NCCc1ccco1)Nc1nccs1,89 µM
CCCOc1nc(Cc2ccccc2)c(C)c(=O)[nH]1,244 µM
O=C1CSC(c2c(Cl)cccc2Cl)N1c1cccc(Br)c1,27.78 µM
COc1cc(Cc2cnc(/N=C3\C(=O)N(CN4CCN(c5ccccn5)CC4)c4ccc(C)cc43)nc2N)cc(OC)c1OC,119.6 µM
Cc1cccc(Nn2c(C)c(C)[nH]c2=S)c1,360 µM
CCOc1cccc(F)c1CCNC(=S)Nc1ccc(Br)cn1,50 µM
CC(C)(C)NC(=O)c1ccccc1SCC(O)Cn1cc(C(=O)NC(C)(C)C)c(-c2ccccc2)c1,101 µM
CC1CCC(C(C)C)/C(=N/NC(=O)Nc2cccc(Cl)c2)C1,>125 µg/mL
O=C(O)c1cn(C2CC2)c2c(OC(F)F)c(N3CCN(c4ncccn4)CC3)c(F)cc2c1=O,8.47 µg/mL
COc1cc(Cc2cnc(/N=C3\C(=O)N(CN4CCN(c5ccc(Cl)cc5)CC4)c4ccc(C)cc43)nc2N)cc(OC)c1OC,49.2 µM
CC(C)c1c(OC#CC2CC2)c2cc(Cl)ccc2[nH]c1=O,40 µM
CC(=O)Oc1cc(S(=O)(=O)O)cc2cc(S(=O)(=O)O)cc(OC(C)=O)c12,>500 µM
Cc1ncn(Nc2ccccc2)c1-c1ccccc1,52.18 µM
CCCCCOc1nc(Cc2ccccc2)cc(=O)[nH]1,245 µM
COc1cccc(N2CCN(CN3C(=O)/C(=N\c4ncc(Cc5cc(OC)c(OC)c(OC)c5)c(N)n4)c4cc(C)ccc43)CC2)c1,32.1 µM
Cn1c([S-])nc2nc(-c3ccccc3)c(-c3ccccc3)nc2c1=O.[Cl][Pt+2][Cl],2.23 µg/mL
O=C1c2ccccc2C(=O)c2c1cc(S(=O)(=O)O)c(O)c2O,120 µg/mL
CCCCOc1nc(Cc2ccccc2)c(CC)c(=O)[nH]1,185 µM
CCc1[nH]c(=S)n(Nc2cccc(Cl)c2)c1-c1ccccc1,38.96 µM
Oc1ccccc1CCNC(=S)Nc1nccs1,100 µM

Repeating the final 11 entries:

{"compound": "COc1cc(Cc2cnc(/N=C3\\C(=O)N(CN4CCN(c5ccc(Cl)cc5)CC4)c4ccc(C)cc43)nc2N)cc(OC)c1OC", "result": "49.2 µM"}
{"compound": "CC(C)c1c(OC#CC2CC2)c2cc(Cl)ccc2[nH]c1=O", "result": "40 µM"}
{"compound": "CC(=O)Oc1cc(S(=O)(=O)O)cc2cc(S(=O)(=O)O)cc(OC(C)=O)c12", "result": ">500 µM"}
{"compound": "Cc1ncn(Nc2ccccc2)c1-c1ccccc1", "result": "52.18 µM"}
{"compound": "CCCCCOc1nc(Cc2ccccc2)cc(=O)[nH]1", "result": "245 µM"}
{"compound": "COc1cccc(N2CCN(CN3C(=O)/C(=N\\c4ncc(Cc5cc(OC)c(OC)c(OC)c5)c(N)n4)c4cc(C)ccc43)CC2)c1", "result": "32.1 µM"}
{"compound": "Cn1c([S-])nc2nc(-c3ccccc3)c(-c3ccccc3)nc2c1=O.[Cl][Pt+2][Cl]", "result": "2.23 µg/mL"}
{"compound": "O=C1c2ccccc2C(=O)c2c1cc(S(=O)(=O)O)c(O)c2O", "result": "120 µg/mL"}
{"compound": "CCCCOc1nc(Cc2ccccc2)c(CC)c(=O)[nH]1", "result": "185 µM"}
{"compound": "CCc1[nH]c(=S)n(Nc2cccc(Cl)c2)c1-c1ccccc1", "result": "38.96 µM"}
{"compound": "Oc1ccccc1CCNC(=S)Nc1nccs1", "result": "100 µM"}